Source: paper PMC9837764 (Nature Communications, 2023)

Test system: SARS-CoV-2
Test: Yield-reduction assay, SARS-CoV-2 in Calu-3 cells (titers as PFU/mL in Vero cells)
Conditions: Selectivity index = CC50/EC50

SMILES | SI (Two treatments) | SI (One treatment)
OC[C@H]1O[C@@H](n2cnc3c(NCc4ccco4)ncnc32)[C@H](O)[C@@H]1O [MB-801, Kinetin riboside] | 26,500 | 
CC(C)C(=O)OC[C@H]1O[C@@H](n2ccc(NO)nc2=O)[C@H](O)[C@@H]1O [MK-4482, molnupiravir, reference compound] | 2,900 | 80
